Results of unrelated studies side by side (data: NIAID ChemDB).

All rows: growth or infection tests; agent: Mycobacterium tuberculosis

Inhibition is in % at the dose shown (toxicity tests: loss of growth or viability). ECn: concentration that inhibits the pathogen or its effect by n%. A number after MIC or MFC names an inhibition level or a share of isolates. Blank or dashed fields: not listed here. Conditions beyond the fields shown may differ between rows. MIC bound: limit read from a one-dose screen. Fold resistance: result on the changed form divided by that on wild type.

compound | setting | read-out | read by | strain | cells | changes | dose | result
O=C(Nc1nc(-c2ccccn2)cs1)c1ccccc1O | - | MIC | visual reading | H37Rv | - | - | - | 1.4 µM
CC[C@@H](CO)NCCN[C@@H](CC)CO | - | MIC | - | Isolate 2 | - | - | - | 8 µg/mL
Cc1cc2no[n+]([O-])c2cc1C | - | MIC | BACTEC | H37Rv | - | - | - | 3.13 µg/mL
c1cncc(C2Nc3ccccc3S2)c1 | - | MIC | - | H37Rv | - | - | - | 4.4 µg/mL
CCc1nc2ccccc2n1CCCCOc1ccc(C)c(Cl)c1 | - | fold resistance | turbidity / fluorescence | H37Rv | - | Rv1339 V90M | - | 0.6
O=C(OCc1ccccc1)N1N=NC2C1C1CC(OCc3ccccc3)(OCc3ccccc3)C2O1 | - | inhibition | BACTEC | H37Rv | - | - | 12.5 µg/mL | 7%
COc1ccc(C2C(C(=O)Nc3ccccc3F)=C(C)NC(C)=C2C(=O)Nc2ccccc2F)cc1OC | - | MIC | - | H37Rv | - | - | - | >6.25 µg/mL
Cc1ccc(NC(=O)NNC(=O)c2ccncc2)cc1 | 14 d | MIC100 | broth dilution | My 331/88 | - | - | - | 62.5 µM
O=c1oc2ccc(-c3ccccc3)cc2c(O)c1N=Nc1cccc(F)c1Cl | - | MIC | resazurin | H37Rv | - | - | - | <6.25 µg/mL
CCc1nc2ccccc2n1CCCCOc1ccccc1 | - | MIC90 | turbidity / fluorescence | H37Rv | - | WT | - | 16 µM
CCCCCc1ccc(NC(=O)NNC(=O)c2ccncc2)cc1 | 21 d | MIC100 | broth dilution | My 331/88 | - | - | - | 62.5 µM
CCCCCC1(C)Cn2cc([N+](=O)[O-])nc2O1 | - | MIC | - | H37Rv-14A1 (PA-824-resistant) | - | - | - | 3.2 µM
COc1ccc(N=Nc2c(C)nn(C(=O)c3ccncc3)c2C)cc1 | - | MIC bound | BACTEC | H37Rv | - | - | - | >12.5 µg/mL
CC(C)(C)c1ccc(NC(=O)NNC(=O)c2ccncc2)cc1 | 21 d | MIC100 | broth dilution | My 331/88 | - | - | - | 16 µM
CO[C@H]1/C=C/O[C@@]2(C)Oc3c(C)c(O)c4c(O)c(c(/C=N/N5CCN(C)CC5)c(O)c4c3C2=O)NC(=O)/C(C)=C\C=C\[C@H](C)[C@H](O)[C@@H](C)[C@@H](O)[C@@H](C)[C@H](OC(C)=O)[C@@H]1C | - | MIC | - | Isolate 8 | - | - | - | >32 µg/mL
N#Cc1cccc(/C=N/NC(=O)Cc2cccs2)c1 | - | MIC | resazurin | H37Rv (ATCC 27294) | - | - | - | >100 µg/mL
NC(=O)NCCCN1c2ccccc2Sc2ccccc21 | - | inhibition | agar | H37Rv | - | - | 25 µg/mL | 10%
Cc1ccc(C)c(Sc2ccncc2)c1 | - | MIC90 | - | H37Rv | - | - | - | >6.25 µg/mL
c1ccc(-c2csc(Nc3ccncc3)n2)nc1 | - | MIC | visual reading | H37Rv | - | - | - | >20 µM
O=C1CSC(c2ccc([N+](=O)[O-])cc2)N1C(=O)NCCCN1c2ccccc2Sc2ccccc21 | - | inhibition | agar | H37Rv | - | - | 25 µg/mL | 30%
Cc1cccc(CSc2ccncc2)c1 | - | MIC90 | - | H37Rv | - | - | - | >6.25 µg/mL
NNC(=O)c1ccccc1SSc1ccccc1C(=O)NN | - | MIC | - | INH-r | - | - | - | >12.5 µg/mL
Cn1c(=O)c(N=Nc2ccccc2[N+](=O)[O-])c(O)c2ccccc21 | - | MIC | resazurin | H37Rv | - | - | - | <6.25 µg/mL
O=C(/C=C/C(=O)c1ccccc1)NC[C@H]1CN(c2ccc(N3CCCCC3)c(F)c2)C(=O)O1 | - | MIC | - | 10 clinical isolates resistant | - | - | - | >16 µg/mL
Cc1ccc2nc(O)cc(=O)n2c1 | - | inhibition | BACTEC | H37Rv | - | - | 6.25 µg/mL | 0%
CCN(CC)CCCN=c1cc2n(-c3ccc(Cl)c(Cl)c3)c3ccccc3nc-2cc1Nc1ccc(Cl)c(Cl)c1 | multidrug-resistant | MIC | - | 2218 | - | - | - | 0.25 µg/mL
CC1(C)CC(N=c2cc3n(-c4ccc(Cl)cc4Cl)c4ccccc4nc-3cc2Nc2ccc(Cl)cc2Cl)CC(C)(C)N1 | inside macrophages | EC50 | - | H37Rv | Macrophages | - | - | <0.005 µg/mL
COC(=O)C1=C(C)N(c2cccc(C)c2)C(C)=C(C(=O)OC)C1c1ccc(O)c(OC)c1 | - | MIC | - | H37Rv | - | - | - | >6.25 µg/mL
O=C1C=C(Nc2ccccc2C(=O)CC(=O)C(=O)Nc2ccc(Cl)cc2)c2ccccc2C1=O | - | inhibition | resazurin | H37Rv | - | - | 6.25 µg/mL | 99%
CC1(C)CC(N=c2cc3n(-c4cc(Cl)c(Cl)c(Cl)c4)c4ccccc4nc-3cc2Nc2cc(Cl)c(Cl)c(Cl)c2)CC(C)(C)N1 | inside macrophages | inhibition | - | H37Rv | Macrophages | - | 0.005 µg/mL | 85%
CO[C@H]1/C=C/O[C@@]2(C)Oc3c(C)c(O)c4c(O)c(c5c(c4c3C2=O)NC2(CCN(CC(C)C)CC2)N=5)=NC(=O)/C(C)=C\C=C\[C@H](C)[C@H](O)[C@@H](C)[C@@H](O)[C@@H](C)[C@H](OC(C)=O)[C@@H]1C | - | MIC | - | Strain 71 | - | - | - | 0.5 µg/mL
NNC(=O)CN(CC(=O)NN)N=O | - | inhibition | BACTEC | H37Rv | - | - | 12.5 µg/mL | 17%
CC1=C(C(=O)Nc2cccc([N+](=O)[O-])c2)C(c2ccccc2)C(C(=O)Nc2cccc([N+](=O)[O-])c2)=C(C)N1 | - | MIC | - | H37Rv | - | - | - | >6.25 µg/mL
FC(F)(F)c1ccccc1Nc1nc(-c2ccc3ccccc3c2)cs1 | - | MIC | visual reading | H37Rv | - | - | - | >20 µM
O=C(CCC(=O)c1cccs1)NC[C@H]1CN(c2ccc(-n3cncn3)c(F)c2)C(=O)O1 | - | MIC | - | ATCC 27294 | - | - | - | 1 µg/mL
COc1ccccc1CSc1ccccn1 | - | MIC90 | - | H37Rv | - | - | - | >6.25 µg/mL
C=CCNc1nc2c(s1)c(C)c(O)c1ccccc12 | - | inhibition | resazurin | H37Rv | - | - | 6.25 µg/mL | 8%
O=c1oc2ccc3ccccc3c2c(O)c1N=Nc1ccccc1 | - | MIC | resazurin | H37Rv | - | - | - | <6.25 µg/mL
CCC1Cn2cc([N+](=O)[O-])nc2O1 | - | MIC | - | H37Rv-T2-3547 (PA-824-resistant) | - | - | - | 0.4 µM
CCN(CC)c1ccc(N=C2C=C(C(=O)Nc3ccccc3OC)C(=O)c3ccccc32)c(C)c1 | - | inhibition | BACTEC | H37Rv | - | - | 12.5 µg/mL | 0%
O=C(/N=C/c1ccccc1O)NCCCN1c2ccccc2Sc2ccccc21 | - | inhibition | agar | H37Rv | - | - | 50 µg/mL | 55%
OCCN1CCN(CCO)CC1 | - | inhibition | BACTEC | H37Rv | - | - | 12.8 µg/mL | 17%
O=C1CSC(c2ccc(Br)cc2)N1C(=O)NCCCN1c2ccccc2Sc2ccccc21 | - | inhibition | agar | H37Rv | - | - | 25 µg/mL | 30%
CCc1nc2ccccc2n1CCCCSc1nccs1 | - | MIC99 | turbidity / fluorescence | H37Rv | - | - | - | >20 µM
O=c1[nH]c2c([N+](=O)[O-])cccc2c(O)c1N=Nc1cccc([N+](=O)[O-])c1 | - | MIC | resazurin | H37Rv | - | - | - | <6.25 µg/mL
Cc1cccc(/C=C2/SC(c3cccc(C)c3)N(C(=O)NCCCN3c4ccccc4Sc4ccccc43)C2=O)c1 | - | inhibition | agar | H37Rv | - | - | 25 µg/mL | 18%
C[C@@]12CC[C@H]3[C@@H](CC[C@@H]4OC(=O)CC[C@]43C)[C@H]1CC[C@H]2O | - | MIC | BACTEC | H37Rv | - | - | - | ≥12.8 µg/mL
O=C(NCCCN1c2ccccc2Sc2ccccc21)N1C(=O)/C(=C\c2ccccc2O)SC1c1ccccc1O | - | inhibition | agar | H37Rv | - | - | 50 µg/mL | 65%
COc1cc(C2=NN(C(=O)COc3ccc4ccccc4c3)[C@H](Cc3ccccc3)C2)c(C)cc1OCC(=O)O | - | inhibition | - | Isoniazid-resistant | - | - | 6.25 µg/mL | 20%
Cc1ccccc1CSc1ncnc2nc[nH]c12 | - | inhibition | - | H37Rv | - | - | 6.25 µg/mL | 0%
CC1=C2C(=O)[C@H]3[C@@H](CC=C4C[C@@H](O)CC[C@@]43C)[C@@H]2CC[C@]12O[C@@H]1C[C@H](C)CN[C@H]1[C@H]2C | - | MIC | BACTEC | H37Rv | - | - | - | 128 µg/mL
COc1cccc2c1NC(c1cccnc1)S2 | - | MIC | - | H37Rv | - | - | - | 0.16 µg/mL
CC(=O)Nc1ccc(OCC(=O)NN2C(=O)C(C)SC2c2ccccc2Cl)cc1 | - | EC50 | - | H37Rv | - | - | - | >12.5 µg/mL
CSc1c2c(c(C)c3c1[nH]c1ccccc13)C=NCC2 | - | MIC bound | resazurin | H37Rv | - | - | - | <6.25 µg/mL
CC(=O)Nc1ccc(OCC(=O)N/N=C/c2ccccc2Cl)cc1 | - | inhibition | - | H37Rv | - | - | 12.5 µg/mL | 35%
O=C1c2cccnc2C(=O)N1CCO | - | MIC bound | BACTEC | H37Rv | - | - | - | >12.8 µg/mL
COc1cccc(/C=N/C(=O)NCCCN2c3ccccc3Sc3ccccc32)c1 | - | inhibition | agar | H37Rv | - | - | 25 µg/mL | 28%
O=c1[nH]c2c([N+](=O)[O-])cccc2c(O)c1N=Nc1cccc(Cl)c1 | - | MIC | resazurin | H37Rv | - | - | - | <6.25 µg/mL
Cc1ccc(NC(=O)/C(CC(=O)c2sc(Nc3ccc(Cl)c(Cl)c3)nc2C)=N\Nc2ccc([N+](=O)[O-])cc2[N+](=O)[O-])c(C)c1 | - | inhibition | resazurin | H37Rv | - | - | 6.25 µg/mL | 51%
FC(F)(F)c1ccccc1Nc1nc(-c2ccccn2)cs1 | - | MIC | visual reading | H37Rv | - | - | - | 11 µM
COc1ccccc1C1C(C(=O)Nc2ccccc2)=C(C)NC(C)=C1C(=O)Nc1ccccc1 | - | MIC | - | H37Rv | - | - | - | >12.5 µg/mL
CCCCCSc1ncnc2nc[nH]c12 | - | inhibition | - | H37Rv | - | - | 6.25 µg/mL | 0%
COC(=O)c1c(C)cc(OC)c(C/C=C(\C)CCCc2coc(C=C(C)C)c2)c1OC | - | MIC | BACTEC | H37Rv | - | - | - | ≥12.5 µg/mL
COc1ccc(CSc2ncccn2)cc1 | - | MIC | - | H37Ra | - | - | - | >12.8 µg/mL
CC(=O)Nc1ccc(OCC(=O)NN2C(=O)C(C)SC2c2ccco2)cc1 | - | inhibition | - | H37Rv | - | - | 12.5 µg/mL | 0%
O=C(Cc1cccs1)N/N=C/c1cccc([N+](=O)[O-])c1O | - | MIC | resazurin | H37Rv (ATCC 27294) | - | - | - | 327.5 µM
CC(=O)Nc1ccc(OCC(=O)NN2C(=O)CSC2c2ccc(Cl)cc2)cc1 | - | EC50 | - | H37Rv | - | - | - | >12.5 µg/mL
C[C@]1(COc2ccc(N3CCC(Oc4ccc(OC(F)(F)F)cc4)CC3)cc2)Cn2cc([N+](=O)[O-])nc2O1 | - | MIC90 | - | 18 strains (SM-resistant) | - | - | - | 0.012 µg/mL
Cc1ccc(C)c(Sc2ncnc3nc[nH]c23)c1 | - | inhibition | - | H37Rv | - | - | 6.25 µg/mL | 0%
CC(=O)N1c2ccccc2Sc2ccccc21 | - | MIC bound | BACTEC | H37Rv | - | - | - | >12.5 µg/mL
O=C1c2ccccc2C(=O)c2cc(C[P+](c3ccccc3)(c3ccccc3)c3ccccc3)ccc21 | - | MIC | resazurin | XZ06008 | - | Extensively drug-resistant | - | 2 µg/mL
Clc1ccc2c(c1)NC(c1ccncc1)S2 | - | MIC | - | H37Rv | - | - | - | 12.5 µg/mL
C/C(NNC(=O)c1ccccc1O)=C1/C=Nc2ccccc2S1 | - | inhibition | BACTEC | H37Rv | - | - | 12.5 µg/mL | 9%
O=C(Cc1cccs1)N/N=C/c1ccc(O)cc1 | - | MIC | resazurin | H37Rv (ATCC 27294) | - | - | - | 404.7 µM
c1ccc(C2Nc3ccccc3S2)cc1 | - | MIC | - | H37Rv | - | - | - | 200 µg/mL
c1c[nH]c(Sc2ncnc3nc[nH]c23)n1 | - | MIC | - | H37Ra | - | - | - | >12.8 µg/mL
O=C(Cc1cccs1)N/N=C/c1ccccc1Cl | - | MIC | resazurin | H37Rv (ATCC 27294) | - | - | - | >100 µg/mL
Cc1ccc(C(=O)CCC(=O)NC[C@H]2CN(c3ccc(-[n+]4[nH]nc5ccccc54)c(F)c3)C(=O)O2)c(C)c1 | - | MIC | - | 10 clinical isolates resistant | - | - | - | >16 µg/mL
O=S(=O)(O)c1cc(O)c2c(N=Nc3ccc(N=Nc4c(S(=O)(=O)O)cc5cc(Nc6ccccc6)ccc5c4O)c4ccccc34)cc(S(=O)(=O)O)cc2c1 | - | MIC | BACTEC | H37Rv | - | - | - | ≥128 µg/mL
CSc1ccc(C(=O)CCC(=O)NC[C@H]2CN(c3ccc(N4CCOCC4)c(F)c3)C(=O)O2)cc1 | - | MIC | - | ATCC 27294 | - | - | - | 0.5 µg/mL
c1ccc(Nc2nc(-c3ccccn3)cs2)cc1 | - | MIC | visual reading | H37Rv | - | - | - | 3.7 µM
CCc1nc2ccc(C)cc2n1CCCNc1ccc(Br)c(C)c1 | - | MIC90 | turbidity / fluorescence | H37Rv | - | WT | - | 0.66 µM
NC(=O)NNc1nc2ccccc2c(=O)n1NC(=O)C(=O)Nc1ccc(Cl)cc1Cl | - | inhibition | BACTEC | H37Rv | - | - | 12.5 µg/mL | 0%
O=C(NNC(=O)c1ccncc1)Nc1ccc(Br)cc1F | 14 d | MIC100 | broth dilution | My 331/88 | - | - | - | 32 µM
NC[C@H]1O[C@H](O[C@H]2[C@H](O)[C@@H](O[C@H]3O[C@H](CO)[C@@H](O)[C@H](N)[C@H]3O)[C@H](N)C[C@@H]2N)[C@H](O)[C@@H](O)[C@@H]1O | - | MIC | - | Isolate 2 | - | - | - | 32 µg/mL
O=C(NNC(=O)c1ccncc1)Nc1ccc(C(F)(F)F)cc1 | 21 d | MIC100 | broth dilution | My 331/88 | - | - | - | 62.5 µM
COc1ccc(C2SCC(=O)N2NC(=O)COc2ccc(NC(C)=O)cc2)cc1 | - | EC50 | - | H37Rv | - | - | - | >12.5 µg/mL